Each structure is given as a SMILES string. Where “and” joins values, the source holds several entries; their conditions need not be identical. Equal values may be shown once. The list shows a part of the results, in another mix than the full data. Calls of active or inactive are those of the source. No rule for the calls is given here.

The target of this experiment is Chaperone protein DnaK (Escherichia coli (strain K12)) (UniProt P0A6Y8). Briefly: blockers of bacterial DnaK function – luminescence, E. coli K12, primary screen (AID 547).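 Also: tested at 10 µM.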 The following applies: DnaK chaperone assay, luminescence read-out; active compounds read low.
`CN(C(=O)Cc1ccc(Cl)c(Cl)c1)[C@H]1CCCC[C@@H]1N1CCCC1`: the luminescence was inactive: 2.8e+06 cps and inactive: 2.3e+06 cps.

With `CN(C(=O)Cc1ccc(Cl)c(Cl)c1)[C@@H]1CCCC[C@@H]1N1CCCC1`, the luminescence was inactive: 2.3e+06 cps.

With `CN(C(=O)Cc1ccccc1)[C@@H]1CC[C@]2(CCCO2)C[C@H]1N1CCCC1`, the luminescence was inactive: 2.3e+06 cps.

Consider `CN(C(=O)Cc1ccc(Cl)c(Cl)c1)[C@@H]1CC[C@]2(CCCO2)C[C@H]1N1CCCC1`, for which the luminescence was inactive: 2.5e+06 cps.

`CN(CCCl)Cc1cc(Cl)c(NC2=NCCN2)c(Cl)c1`: the luminescence is inactive: 3e+06 cps.

Take `CN(C(=O)Cc1ccc(Cl)c(Cl)c1)[C@@H]1CCCC[C@H]1N1CCCC1`: the luminescence is inactive: 2.2e+06 cps.

Source of the values: PubChem BioAssay AID547 (Emory University Molecular Libraries Screening Center, 2006).
